Data published in patent US20140004137A1, “IMMUNE RESTRICTED PEPTIDES WITH INCREASED EFFICACY” (priority 2010, published 2014).

Molecular target: HLA-A0201 (Homo sapiens, UniProt P04439, D140Y/D185E/D98H/E176V/E277Q/G131W/G231S/I119V/I121R/I166T/I218V/L300P/L318F/N151K/N90K/P208A/P217A/Q86G/Q94H/R138H/R169H/T345S)
Type: binding

Substance: [3-PYRA]LCTLVAML
- % inhibition at T = 4 H (FP 4 h): 75%
- % inhibition at T = 24 H (FP 24 h): 72%
